The list shows a part of the results, in another mix than the full data. Active and inactive are the calls of the source. No stated cut-off is given here; in the data, active means inhibition mostly above about 34% (no sharp cut-off); inconclusive means no clear call, values can overlap the other calls; inactive means mostly below about 22%.
The compounds below were run against dTDP-4-dehydrorhamnose reductase (Mycobacterium tuberculosis (strain ATCC 25618 / H37Rv)) + dTDP-4-dehydrorhamnose 3,5-epimerase (Mycobacterium tuberculosis (strain ATCC 25618 / H37Rv)) (UniProt P9WH09+P9WH11) (assay: M. tuberculosis RmlC/RmlD coupled enzyme inhibitors, primary screen, biochemical, compound mixtures, 384-well, from 1536-well plates (AID 1533)). Settings: RmlC+RmlD coupled enzyme assay, percent inhibition; primary screen in compound mixtures; at 3.6 µM; stronger effect = higher value.

Protein sequences, listed by entry. Tags and fused reporters are not part of them.
UniProt P9WH09, whole entry, looked up: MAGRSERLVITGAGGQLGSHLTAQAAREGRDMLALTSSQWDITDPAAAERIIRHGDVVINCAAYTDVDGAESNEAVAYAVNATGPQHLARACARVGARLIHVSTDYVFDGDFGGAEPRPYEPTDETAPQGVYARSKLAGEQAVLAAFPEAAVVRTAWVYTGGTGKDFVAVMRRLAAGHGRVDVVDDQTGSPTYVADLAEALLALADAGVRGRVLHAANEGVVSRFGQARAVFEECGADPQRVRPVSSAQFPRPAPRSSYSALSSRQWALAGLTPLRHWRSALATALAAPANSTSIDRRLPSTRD
UniProt P9WH11, whole entry, looked up: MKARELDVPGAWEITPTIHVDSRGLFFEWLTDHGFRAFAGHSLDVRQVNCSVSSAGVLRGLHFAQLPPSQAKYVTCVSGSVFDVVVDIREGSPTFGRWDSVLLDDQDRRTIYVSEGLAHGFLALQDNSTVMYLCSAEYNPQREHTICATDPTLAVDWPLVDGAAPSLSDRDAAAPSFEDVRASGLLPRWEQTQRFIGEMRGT

Row | SMILES | inhibition
1 | O=P1(Nc2ncccn2)COc2ccccc2OC1 | inactive: -14.6%
2 | Cc1ccc(OCC(=O)OC2CN3CCC2CC3)cc1 (stereo not drawn) | inactive: 60.1%
3 | O=P1(Nc2ccc(Br)cn2)COc2ccccc2OC1 | inactive: 7.87%
4 | CCCOc1ccc(NP(C)(=O)Oc2ccc(Cl)cc2)cc1 (stereo not drawn) | inactive: 8.51%
5 | CP(=O)(Nc1ccc(SC(F)(F)F)cc1)Oc1ccccc1 (stereo not drawn) | inactive: -5.26%
6 | Nc1cccc([As](=O)(O)c2ccccc2)c1 | inactive: 6.73%
7 | CCOP(=O)(Nc1ccc(C)cn1)OCC | inactive: 8.08%
8 | O=P1(Nc2ccccn2)COc2ccccc2OC1 | inactive: -8.38%
9 | O=[N+]([O-])c1cc([N+](=O)[O-])c(-n2nnc3ccccc32)c([N+](=O)[O-])c1 | inactive: 16.8%
10 | Clc1n[nH]nc1-c1nn[nH][15n]1 | inactive: -15%
11 | CC(C)(C)C(=O)NC(Sc1ncccn1)C(Cl)(Cl)Cl (stereo not drawn) | inactive: -10%
12 | O=[As](O)(c1ccccc1Br)c1ccccc1Br | inactive: 21.4%
13 | Cc1nc2ccc3ccccc3c2s1.O=[N+]([O-])c1cc([N+](=O)[O-])c(O)c([N+](=O)[O-])c1 | inactive: 11.4%
14 | CN(C(=O)Cc1ccc(Cl)c(Cl)c1)[C@@H]1CCCC[C@H]1N1CCCC1 | inactive: 3.14%
15 | CP(=O)(Nc1ccc(SC(F)(F)F)cc1)Oc1ccc(F)cc1 (stereo not drawn) | inactive: 3.33%
16 | CC(C)C(=O)NC(Sc1ccccc1)C(Cl)(Cl)Cl (stereo not drawn) | inactive: 7.01%
17 | CCOP(C)(=S)SCC(=O)NC(C)(CC)C(=O)O (stereo not drawn) | inactive: 2.05%
18 | Cc1ccccc1NP(C)(=O)Nc1ccccc1C | inactive: -4.98%
19 | COc1ccc(OP(C)(=O)Nc2cccc(Br)c2)cc1 (stereo not drawn) | inactive: 7.61%
20 | O=P(Nc1ccccn1)(c1ccc(Br)cc1)c1ccc(Br)cc1 | inactive: -11.5%
21 | O=P(Nc1nc2ccccc2s1)(c1ccccc1)c1ccccc1 | inactive: 1.85%
22 | CN(C)CCOC(=O)C(O)(c1ccccc1)C1CCCCC1 (stereo not drawn) | inactive: 36.8%
23 | COc1ccc(NP(C)(=O)Oc2ccccc2OC)cc1 (stereo not drawn) | inactive: 2.95%
24 | CC(=O)NC(SC(=S)N(C)C)C(Cl)(Cl)Cl (stereo not drawn) | inactive: -3.1%
25 | O=[N+]([O-])c1ncn(CCn2cnc([N+](=O)[O-])n2)n1 | inactive: -16.7%
26 | O=[As](O)(c1ccccc1)c1ccc(O)cc1 | inactive: 2.85%
27 | Cc1cc(-c2cccc3ccccc23)c(C)cn1.O=[N+]([O-])c1cc([N+](=O)[O-])c(O)c([N+](=O)[O-])c1 | inactive: -5.14%
28 | O=[N+]([O-])c1cc([N+](=O)[O-])c(NCC2CCS(=O)(=O)C2)c([N+](=O)[O-])c1 (stereo not drawn) | inactive: 5.43%
